Reference: patent US20260335320A1, “ANTI-VIRULENCE AGENTS AND METHODS FOR THE TREATMENT OF PATHOGENIC BACTERIUM” (priority 2023, published 2026)

What was measured:
[1] = tested on: Burkholderia FixLJ pathway (Fix-GFP reporter in B. multivorans strain VC7102); experiment: Fix-GFP reporter activation screen (GFP fluorescence); conditions: vs DMSO
[2] = tested on: Burkholderia FixLJ pathway (Fix-GFP reporter in B. dolosa strain AU0158); experiment: Fix-GFP reporter activation, parental B. dolosa (GFP fluorescence)

SMILES: NC(CO)C(=O)NNCc1ccc(O)c(O)c1O (stereo not drawn) [Benserazide, benserazide]
- induction of GFP response [1]: able to induce GFP response in a dose-dependent manner in both B. multivorans and B. dolosa
- induction of GFP response ([1]; listed as benserazide): able to induce GFP levels above vehicle (DMSO) treated wells
- induction of GFP response / activation of GFP reporter [2]: able to induce GFP response in a dose-dependent manner in both B. multivorans and B. dolosa
